Measured values from several laboratories, pooled; numbers as filed in NIAID ChemDB.

Common to all: growth or infection tests; organism: HIV-1; cell line: MOLT-4; endpoint: EC50

Blank or dashed fields: not listed here.

structure | strain or isolate | method | value
COc1ccc(Cc2nccc3cc(OC)c(OC)cc23)cc1OC | NDK | cytopathic effect | <1 µg/mL
O=C(CCCCCCCCCCC(=O)Nc1cc(S(=O)(=O)O)cc2cc(S(=O)(=O)O)cc(O)c12)Nc1cc(S(=O)(=O)O)cc2cc(S(=O)(=O)O)cc(O)c12 | IIIB | syncytia | 47 µM
CCOP(=O)(N[C@@H](CC(C)C)C(=O)OC)OC[C@H]1O[C@@H](n2cc(C)c(=O)[nH]c2=O)C[C@@H]1N=[N+]=[N-] | NDK | cytopathic effect | <1 µg/mL
CCCN(C)C(=O)Oc1nsnc1-c1c(Cl)ccc(N)c1Cl | IIIB | cytopathic effect / MTT | 0.013 µM
OC[C@@H]1[C@@H](O)[C@H](O)[C@@H](O)CN1C/C=C/c1ccccc1Cl | IIIB | syncytia | 160 µM
O=C(O)C1=CC(=C(c2ccc(O)c(C(=O)O)c2)c2ccc(O)c(C(=O)O)c2)C=CC1=O | NDK | cytopathic effect | 38 µg/mL
COc1cc(O)c2c(c1)C(=O)c1c(cc3c(c1O)-c1c(cc(C)c(C(=O)N[C@H](C)C(=O)O)c1O)[C@H](O[C@@H]1O[C@H](C)[C@H](N)[C@H](O[C@@H]4OC[C@@H](O)[C@H](O)[C@@H]4O)[C@H]1O)[C@H]3O)C2=O | IIIB | syncytia | <10 µg/mL
OC[C@@H]1[C@@H](O)[C@H](O)[C@@H](O)CN1CCCCC(F)(F)F | IIIB | syncytia | 26 µM
NCC(=O)Nc1ccc(Cl)cc1C(=O)c1ccc[nH]1 | IIIB | cytopathic effect / MTT | 0.62 µg/mL
OC[C@@H]1[C@@H](O)[C@H](O)[C@@H](O)CN1CCCC(F)(F)F | IIIB | syncytia | 80 µM
OC[C@@H]1[C@@H](O)[C@H](O)[C@@H](O)CN1CCCc1ccccc1 | IIIB | cell fusion | <5 µg/mL
CC(C)(C)NC(=O)[C@@H]1C[C@@H]2CCCC[C@@H]2CN1C[C@@H](O)[C@H](Cc1ccccc1)NC(=O)[C@H](CC(N)=O)NC(=O)c1ccc2ccccc2n1 | NDK | cytopathic effect | <1 µg/mL
Cc1cn([C@H]2C[C@H](N=[N+]=[N-])[C@@H](CO)O2)c(=O)[nH]c1=O | IIIB | p24 | 1 µM
CCOCn1c(Sc2cc(C)cc(C)c2)c(CC)c(=O)[nH]c1=S | IIIB | cytopathic effect / MTT | 0.0031 µM
OC[C@@H]1[C@@H](O)[C@H](O)[C@@H](O)CN1C/C=C/c1ccccc1 | - | syncytia | <5 µg/mL
OC[C@H]1NC[C@H](O)[C@@H](O)[C@@H]1O | IIIB | syncytia | 270 µM
O=c1[nH]c(=O)n([C@H]2CC[C@@H](CO)O2)cc1/C=C/c1ccccc1 | - | - | 10 µg/mL
CCCCCCCCCCCCCCCC(=O)Nc1cc(S(=O)(=O)O)cc2cc(S(=O)(=O)O)cc(O)c12 | IIIB | syncytia | 53 µM
CCn1cc(C(=O)O)c(=O)c2cc(F)c(N3CCN(c4ccccc4OC)CC3)c(OC(F)F)c21 | IIIB | cytopathic effect / MTT | 0.061 µM
C1CNCCNCC(CCOCCOCCC2CNCCNCCCNCCNC2)CNCCNC1 | RF | syncytia | 105 µM
Cc1cn([C@@H]2O[C@H](CO[Si](C)(C)C(C)(C)C)C3(OS(=O)(=O)C=C3N)[C@H]2O[Si](C)(C)C(C)(C)C)c(=O)n(C)c1=O | HE | cytopathic effect | 0.06 µg/mL
CCn1cc(C(=O)O)c(=O)c2cc(F)c(N3CCN(c4ncccn4)CC3)c(OC(F)F)c21 | IIIB | cytopathic effect / MTT | 0.21 µM
CN=C1CN=C(c2ccc[nH]2)c2cc(Cl)ccc2N1 | IIIB | cytopathic effect / MTT | ≤0.3 µM
COC(=O)[C@@H](NC(=O)[C@@H](NC(=O)CC[C@H](O)[C@H](Cc1ccccc1)NC(=O)[C@H](C)NC(=O)OCc1ccccc1)C(C)C)C(C)C | IIIB | p24 | 0.04–3 µM
C[C@@H]1[C@H](O)[C@@H](C)/C=C/C=C/C=C/C=C/C=C/C=C/C=C/[C@H](O[C@@H]2O[C@H](C)[C@@H](O)[C@H](N)[C@@H]2O)CC2O[C@](O)(CC(O)C(O)CCC(O)CC(O)CC(O)CC(=O)O[C@H]1C)CC(O)C2C(=O)O.O=S(=O)(O)O | IIIB | syncytia | 16 µg/mL
O=c1ccn([C@H]2CC[C@@H](CO)O2)c(=O)[nH]1 | NDK | cytopathic effect | 10 µg/mL
CC(C)Nc1cccnc1N1CCN(C(=O)c2cc3cc(NS(C)(=O)=O)ccc3[nH]2)CC1 | HE | cytopathic effect | 0.05 µg/mL
C1CNCCNCCCNCCNC1 | IIIB | syncytia | 423 µM
CO[P@](=O)(c1cc(C)cc(/C=C/C#N)c1)c1c(C(N)=O)[nH]c2ccc(Cl)cc12 | IIIB | - | 0.0006 µM
Cc1cn([C@H]2C[C@H](N=[N+]=[N-])[C@@H](CO)O2)c(=O)[nH]c1=O | IIIB | cytopathic effect / MTT | 0.006 µM
OC[C@@H]1[C@@H](O)[C@H](O)[C@@H](O)CN1C/C=C/c1ccc(F)cc1 | IIIB | syncytia | 29 µM
Cc1cn([C@H]2C[C@H](N=[N+]=[N-])[C@@H](CO)O2)c(=O)[nH]c1=O | - | p24 / ELISA | >50 µM
Cc1ccc(S(=O)(=O)N[C@@H](CCCCN)C(=O)CCl)cc1 | IIIB | p24 | 6 µM
CCCN(C)C(=O)Oc1nsnc1-c1c(Cl)cccc1Cl | HE | cytopathic effect | 0.011 µM
OC[C@H]1N[C@H](CO)[C@@H](O)[C@@H]1O | NDK | cytopathic effect | 167 µg/mL
CN=C1CN=C(c2ccc[nH]2)c2cc(Cl)ccc2N1 | IIIB | cytopathic effect / MTT | 0.23 µM
O=C(O)P(=O)(O)O | NDK | cytopathic effect | 44 µg/mL
CCCCCC/C=C\C/C=C\CCCCCCC(=O)O[C@H](COC(=O)CCCCCCCCCCCCCCC)COP(=O)(O)OC1[C@@H](O)[C@H](O)C(O)[C@H](O)[C@@H]1O | - | p24 / ELISA | 38 µM
COC(=O)[C@@H](C)NC(=O)c1c(C)cc2c(c1O)-c1c(cc3c(c1O)C(=O)c1cc(OC)cc(O)c1C3=O)[C@H](O)[C@H]2O[C@@H]1O[C@H](CO)[C@H](N)[C@H](O)[C@H]1O | IIIB | syncytia | <30 µg/mL
Cc1cn([C@@H]2O[C@H](CO[Si](C)(C)C(C)(C)C)C3(OS(=O)(=O)C=C3N)[C@H]2O)c(=O)[nH]c1=O | IIIB | syncytia | >40 µM
OC[C@@H]1[C@@H](O)[C@H](O)[C@@H](O)CN1C/C=C/c1ccccc1F | IIIB | syncytia | 9.1 µM
O=S(=O)(O)c1cc(Nc2nc(Cl)nc(Nc3ccc(Nc4nc(Cl)nc(Nc5cc(S(=O)(=O)O)cc6cc(S(=O)(=O)O)c(N=Nc7ccccc7S(=O)(=O)O)c(O)c56)n4)cc3)n2)c2c(O)c(N=Nc3ccccc3S(=O)(=O)O)c(S(=O)(=O)O)cc2c1 | MN | - | 1–10 µM
Cc1cn([C@@H]2O[C@H](CO)C3(OS(=O)(=O)C=C3N)[C@H]2O[Si](C)(C)C(C)(C)C)c(=O)[nH]c1=O | IIIB | syncytia | >80 µM
COC(=O)[C@@H](NC(=O)[C@@H](NC(=O)CC[C@H](O)[C@H](Cc1ccccc1)NC(=O)[C@H](C)NC(=O)OCc1ccccc1)C(C)C)C(C)C | IIIB | p24 | <4.2 µM

Repeating the first 5 entries:

| structure | strain or isolate | method | value |
|---|---|---|---|
| COc1ccc(Cc2nccc3cc(OC)c(OC)cc23)cc1OC | NDK | cytopathic effect | <1 µg/mL |
| O=C(CCCCCCCCCCC(=O)Nc1cc(S(=O)(=O)O)cc2cc(S(=O)(=O)O)cc(O)c12)Nc1cc(S(=O)(=O)O)cc2cc(S(=O)(=O)O)cc(O)c12 | IIIB | syncytia | 47 µM |
| CCOP(=O)(N[C@@H](CC(C)C)C(=O)OC)OC[C@H]1O[C@@H](n2cc(C)c(=O)[nH]c2=O)C[C@@H]1N=[N+]=[N-] | NDK | cytopathic effect | <1 µg/mL |
| CCCN(C)C(=O)Oc1nsnc1-c1c(Cl)ccc(N)c1Cl | IIIB | cytopathic effect / MTT | 0.013 µM |
| OC[C@@H]1[C@@H](O)[C@H](O)[C@@H](O)CN1C/C=C/c1ccccc1Cl | IIIB | syncytia | 160 µM |

a–b is a range or a potency band. ECn: concentration that inhibits the pathogen or its effect by n%. Neighbouring rows are from separate reports.